Results of unrelated studies side by side (data: NIAID ChemDB).

All rows: tests in culture; organism: Vaccinia virus; read-out: EC50

Blank or dashed fields: not listed here.

Cc1cn(CC[C@H](O)CCO)c(=O)[nH]c1=O ; cell line: E6SM ; result: >400 µg/mL
CCc1cn([C@H]2C[C@H](O)[C@@H](COP(=O)(O)O)O2)c(=O)[nH]c1=O ; cell line: PRK ; result: 174 µg/mL
CCCc1cn([C@H]2C[C@H](O)[C@@H](CO)O2)c(=O)[nH]c1=O ; cell line: E6SM ; result: 890 µM
CO[C@H]1/C=C/O[C@@]2(C)Oc3c(C)c(O)c4c(O)c(c(/C=N/NC(=O)CN5CCN(c6ccc(Cl)cc6)CC5)c(O)c4c3C2=O)NC(=O)/C(C)=C\C=C\[C@H](C)[C@H](O)[C@@H](C)[C@@H](O)[C@@H](C)[C@H](OC(C)=O)[C@@H]1C ; cell line: L929 ; result: >50 µg/mL
CO[C@H](CO)[C@@H](O)CCn1cnc2c(=O)[nH]c(N)nc21 ; cell line: E6SM ; result: >400 µg/mL
OCCCCn1nncc1Cn1ncc2c(SCc3ccccc3)ncnc21 ; cell line: E6SM ; result: >400 µg/mL
CC(C)(C)c1cn([C@H]2C[C@H](O)[C@@H](CO)S2)c(=O)[nH]c1=O ; cell line: E6SM ; result: >1500 µM
CC=NC(=N)c1nc(-c2ccccc2)n(COCCO)n1 ; cell line: E6SM ; result: >40 µg/mL
CC1=Nn2c(nnc2-c2cn(-c3ccccc3)nc2-c2ccccc2)SC1 ; cell line: HEL ; result: >16 µg/mL
CO[C@H]1/C=C/O[C@@]2(C)Oc3c(C)c(O)c4c(O)c(c(/C=N/NC(=O)CN5CCN(c6ccc(C(C)C)cc6)CC5)c(O)c4c3C2=O)NC(=O)/C(C)=C\C=C\[C@H](C)[C@H](O)[C@@H](C)[C@@H](O)[C@@H](C)[C@H](OC(C)=O)[C@@H]1C ; cell line: L929 ; result: >50 µg/mL
CC(=O)OCCOCN1C(=O)C=CN(COCCO)S1(=O)=O ; cell line: E6SM ; result: >400 µg/mL
CCCCCCc1cn([C@@H]2OC3COP(=O)(O)OC3[C@H]2O)c(=O)nc1N ; result: >400 µg/mL
C=C[C@@H](O)C1=C[C@@H](n2cnc3c(N)ncnc32)[C@H](O)[C@@H]1O ; cell line: E6SM ; result: 0.2 µg/mL
Cn1cc(NC(=O)c2cc(NC(=O)c3cc(NC=O)cn3C)cn2C)cc1C(=O)NCCC(=N)N ; strain or isolate: Noguchi ; cell line: BSC-1 ; result: <10 µg/mL
CC=NC(=N)c1nc(-c2ccccc2)n(C/C=C/c2ccccc2)n1 ; cell line: E6SM ; result: >4 µg/mL
O=c1[nH]c(=O)n([C@H]2C[C@H](O)[C@@H](CO)O2)cc1-c1cc(Br)no1 ; cell line: E6SM ; result: >400 µg/mL
CCOC(=O)C1Sc2nnc(-c3cn(-c4ccccc4)nc3-c3ccccc3)n2NC1=O ; cell line: HEL ; result: >80 µg/mL
Nc1nccc2c1ncn2[C@@H]1C[C@H](CO)[C@@H](O)[C@H]1O ; cell line: VERO ; result: 1.2 µg/mL
C#C[C@H](O)C1=C[C@@H](n2cnc3c(N)ncnc32)[C@H](O)[C@@H]1O ; cell line: E6SM ; result: 4 µg/mL
NC1=CC(N)=NS(=O)(=O)N1COCCO ; cell line: E6SM ; result: >400 µg/mL
CO[C@H]1/C=C/O[C@@]2(C)Oc3c(C)c(O)c4c(O)c(c(/C=N/NC(=O)CN5CCN(c6ccc(Oc7ccccc7)cc6)CC5)c(O)c4c3C2=O)NC(=O)/C(C)=C\C=C\[C@H](C)[C@H](O)[C@@H](C)[C@@H](O)[C@@H](C)[C@H](OC(C)=O)[C@@H]1C ; cell line: L929 ; result: >50 µg/mL
Cn1cc(NC(=O)c2cc(NC(=O)c3cc([N+](=O)[O-])cn3C)cn2C)cc1C(=O)NCCC(=N)N ; strain or isolate: Noguchi ; cell line: BSC-1 ; result: >200 µg/mL
C=C(N=CC)c1nc(-c2ccc(C)cc2)n([C@@H]2O[C@H](CO)[C@@H](O)[C@H]2O)n1 ; cell line: E6SM ; result: >40 µg/mL
O=c1c2ncn(COC(CO)CO)c2nc2[nH]c(-c3ccccc3)cn12 ; cell line: E6SM ; result: >90 µg/mL
Cc1nn2c(-c3cn(-c4ccccc4)nc3-c3ccccc3)nnc2s1 ; cell line: HEL ; result: >16 µg/mL
CC(C)(C)c1cn([C@H]2C[C@H](O)[C@@H](CO)O2)c(=O)[nH]c1=O ; cell line: E6SM ; result: 850 µM
CCCCCCc1cn([C@@H]2O[C@H](COP(=O)(O)O)[C@@H](O)[C@H]2O)c(=O)nc1N ; result: >400 µg/mL
O=S(=O)(O)c1c2ccccc2c(-c2c3nc(c(-c4c5ccccc5c(S(=O)(=O)O)c5ccccc45)c4ccc([nH]4)c(-c4c5ccccc5c(S(=O)(=O)O)c5ccccc45)c4nc(c(-c5c6ccccc6c(S(=O)(=O)O)c6ccccc56)c5ccc2[nH]5)C=C4)C=C3)c2ccccc12 ; strain or isolate: IHD-J (EEV) ; cell line: BSC-40 ; result: 0.55 µg/mL
CCc1cn([C@H]2C[C@H](O)[C@@H](CO)O2)c(N)nc1=O ; cell line: PRK ; result: >400 µg/mL
c1ccc(C2=Nn3c(nnc3-c3cn(-c4ccccc4)nc3-c3ccccc3)SC2)cc1 ; cell line: HEL ; result: >3.2 µg/mL
CC=NC(=N)c1nc(-c2cccc(C)c2)n(Cc2ccccc2)n1 ; cell line: E6SM ; result: >4 µg/mL
Nc1nc(=O)c(/C=C/Br)cn1[C@H]1C[C@H](O)[C@@H](CO)O1 ; cell line: PRK ; result: >400 µg/mL
OCCCCn1cc(Cn2ncc3c(SCc4ccccc4)ncnc32)nn1 ; cell line: E6SM ; result: >400 µg/mL
Nc1nccc2c1ncn2[C@@H]1C[C@H](CO)[C@@H](O)[C@H]1O ; cell line: E6SM ; result: 1 µg/mL
C=C(N=CC)c1nc(-c2ccc(OC)cc2)n([C@@H]2O[C@H](CO)[C@@H](O)[C@H]2O)n1 ; cell line: E6SM ; result: 150 µg/mL
Nc1ccn(CC[C@H](O)CCO)c(=O)n1 ; cell line: E6SM ; result: >400 µg/mL
O=c1[nH]c(=O)n([C@H]2C[C@H](O)[C@@H](CO)O2)cc1Cc1ccccc1 ; cell line: PRK ; result: 300 µM
O=c1[nH]c(=O)n([C@H]2C[C@H](O)[C@@H](CO)S2)cc1C1CCCCC1 ; cell line: E6SM ; result: 720 µM
Nc1nc2c(ncn2[C@H]2COC[C@@H](CO)O2)c(=O)[nH]1 ; cell line: L1210 ; result: >30 µM
CCCc1cn([C@H]2C[C@H](O)[C@@H](COP(=O)(O)O)O2)c(=O)[nH]c1=O ; cell line: BSC-1 ; result: >797 µg/mL
CC(=O)OCCOCN1C=CC(=O)N(COCCO)S1(=O)=O ; cell line: E6SM ; result: >400 µg/mL
CC(C)CS[C@H]1C[C@@H](n2cnc3c(N)ncnc32)[C@H](O)[C@@H]1O ; cell line: E6SM ; result: 240 µg/mL
CO[C@H](CO)[C@@H](O)CCn1cc(C)c(=O)[nH]c1=O ; cell line: E6SM ; result: >400 µg/mL
CC(=O)OCCOCN1C(C)=CC(N)=[N+](c2ccccc2)S1(=O)=O ; cell line: E6SM ; result: >400 µg/mL
CO[C@H]1/C=C/O[C@@]2(C)Oc3c(C)c(O)c4c(O)c(c(/C=N/NC(=O)CN5CCN(c6ccc(C(F)(F)F)cc6)CC5)c(O)c4c3C2=O)NC(=O)/C(C)=C\C=C\[C@H](C)[C@H](O)[C@@H](C)[C@@H](O)[C@@H](C)[C@H](OC(C)=O)[C@@H]1C ; cell line: L929 ; result: >50 µg/mL
Nc1nc2c(ncn2COCCOP(=O)(O)O[C@@H]2[C@H](O)[C@@H](COP(=O)(O)O[C@@H]3[C@H](O)[C@@H](CO)O[C@H]3n3cnc4c(N)ncnc43)O[C@H]2n2cnc3c(N)ncnc32)c(=O)[nH]1 ; cell line: PRK ; result: >100 µg/mL
CO[C@H]1/C=C/O[C@@]2(C)Oc3c(C)c(O)c4c(O)c(c(/C=N/NC(=O)CN5CCN(c6ccc(C(C)(C)C)cc6)CC5)c(O)c4c3C2=O)NC(=O)/C(C)=C\C=C\[C@H](C)[C@H](O)[C@@H](C)[C@@H](O)[C@@H](C)[C@H](OC(C)=O)[C@@H]1C ; cell line: L929 ; result: >50 µg/mL
CCOC(=O)C1=CN(COCCOC(C)=O)S(=O)(=O)N=C1N ; cell line: E6SM ; result: >400 µg/mL
CCCCCCCCCCCCCCCCOCCCOP(=O)(O)COCCn1cnc2c(=O)[nH]c(N)nc21 ; strain or isolate: Copenhagen ; cell line: HFF ; result: 0.091 µM
[N-]=[N+]=N[C@@H]1[C@@H](OP(=O)(O)OC[C@H]2O[C@@H](n3cnc4c(N)ncnc43)[C@H](OP(=O)(O)OCCOCn3cnc4c(=O)[nH]c(N)nc43)[C@H]2N=[N+]=[N-])[C@H](n2cnc3c(N)ncnc32)O[C@@H]1CO ; cell line: PRK ; result: 7 µg/mL
Nc1ncnc2c1ncn2C[C@@H](CO)OCP(=O)(O)O ; cell line: VERO ; result: 8.1 µg/mL
CO[C@H]1/C=C/O[C@@]2(C)Oc3c(C)c(O)c4c(O)c(c(/C=N/NC(=O)CN5CCN(c6ccc(C#N)cc6)CC5)c(O)c4c3C2=O)NC(=O)/C(C)=C\C=C\[C@H](C)[C@H](O)[C@@H](C)[C@@H](O)[C@@H](C)[C@H](OC(C)=O)[C@@H]1C ; cell line: L929 ; result: >50 µg/mL
O=c1[nH]c(=O)n([C@H]2C[C@H](O)[C@@H](CO)O2)cc1C1CC1 ; cell line: E6SM ; result: 35 µM
CO[C@H]1/C=C/O[C@@]2(C)Oc3c(C)c(O)c4c(O)c(c(/C=N/NC(=O)CN5CCN(c6ccc(NC(C)=O)cc6)CC5)c(O)c4c3C2=O)NC(=O)/C(C)=C\C=C\[C@H](C)[C@H](O)[C@@H](C)[C@@H](O)[C@@H](C)[C@H](OC(C)=O)[C@@H]1C ; cell line: L929 ; result: >50 µg/mL
Nc1ncnc2c1cnn2Cc1cn(CCCCO)nn1 ; cell line: E6SM ; result: >400 µg/mL
Cc1cn([C@@H]2OC3COP(=O)(O)OC3[C@H]2O)c(=O)nc1N ; result: >400 µg/mL
C=C(N=CC)c1nc(-c2ccccc2)n(C2O[C@H](CO)[C@@H](O)[C@H](O)[C@H]2O)n1 ; cell line: E6SM ; result: >200 µg/mL

For reference, 7 entries again:

structure,strain or isolate,cell line,result
[N-]=[N+]=N[C@@H]1[C@@H](OP(=O)(O)OC[C@H]2O[C@@H](n3cnc4c(N)ncnc43)[C@H](OP(=O)(O)OCCOCn3cnc4c(=O)[nH]c(N)nc43)[C@H]2N=[N+]=[N-])[C@H](n2cnc3c(N)ncnc32)O[C@@H]1CO,,PRK,7 µg/mL
CC(=O)OCCOCN1C(=O)C=CN(COCCO)S1(=O)=O,,E6SM,>400 µg/mL
CC1=Nn2c(nnc2-c2cn(-c3ccccc3)nc2-c2ccccc2)SC1,,HEL,>16 µg/mL
CO[C@H]1/C=C/O[C@@]2(C)Oc3c(C)c(O)c4c(O)c(c(/C=N/NC(=O)CN5CCN(c6ccc(Oc7ccccc7)cc6)CC5)c(O)c4c3C2=O)NC(=O)/C(C)=C\C=C\[C@H](C)[C@H](O)[C@@H](C)[C@@H](O)[C@@H](C)[C@H](OC(C)=O)[C@@H]1C,,L929,>50 µg/mL
CO[C@H]1/C=C/O[C@@]2(C)Oc3c(C)c(O)c4c(O)c(c(/C=N/NC(=O)CN5CCN(c6ccc(C(C)(C)C)cc6)CC5)c(O)c4c3C2=O)NC(=O)/C(C)=C\C=C\[C@H](C)[C@H](O)[C@@H](C)[C@@H](O)[C@@H](C)[C@H](OC(C)=O)[C@@H]1C,,L929,>50 µg/mL
Nc1ccn(CC[C@H](O)CCO)c(=O)n1,,E6SM,>400 µg/mL
O=c1[nH]c(=O)n([C@H]2C[C@H](O)[C@@H](CO)O2)cc1-c1cc(Br)no1,,E6SM,>400 µg/mL

Conditions beyond the fields shown may differ between rows. ECn is the concentration giving n% inhibition of infection, replication or growth.